Record: PubChem BioAssay AID624099 (ICCB-Longwood, 2012)
Screen: 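Human genes that papillomavirus E2 requires to repress the HPV18 LCR promoter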 (primary screen). System: human C33A cervical carcinoma cells (HPV-negative) stably expressing BPV1 E2 and an HPV18 LCR luciferase reporter. Reagent: siRNA pool against human genes, 40 nM. Duration: 72 h. Read-out: 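HPV18 LCR reporter light per well, converted to plate-wise z-scores that exclude control wells, and averaged over triplicate plates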. Reading the numbers: mean z-score and z-score: higher = stronger reporter signal, weaker E2 silencing. Hit rule: 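Mean z ≥ 2 together with z ≥ 2 in two or more of the three replicates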.
Shown is an unselected part of about 21,000 deposited reagents. Of all reagents, 497 (2.4%) were called active. 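Higher z means weaker E2 silencing; only reporter increases were scored, and knock-downs that hurt cell survival may mask genuine repressor factors.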 A number with no mark means an inactive call.

no.	target	mean z-score	z-score, replicate A	z-score, replicate B	z-score, replicate C
1	ARHGAP12	-0.46	-0.27	-0.52	-0.61
2	ALDH5A1	-0.72	-0.49	-0.8	-0.86
3	MFAP3L	-0.41	-0.49	-0.36	-0.37
4	PCCA	0.03	-0.08	0.22	-0.03
5	KIF4B	2.15 (active)	2.26	2.11	2.08
6	ELMO2	0.26	0.53	0.13	0.11
7	APLF	-1.1	-0.94	-1.31	-1.06
8	MED6	-3.01	-3.11	-3.1	-2.82
9	RNF145	1.21	1.75	0.81	1.07
10	PPM1L	-0.21	-0.25	-0.24	-0.13
11	OAS2	0.78	1.25	0.49	0.6
12	KIF19	-2.5	-2.41	-2.6	-2.51
13	MIP	0.15	0.73	-0.36	0.08
14	PMM1	2.87 (active)	2.47	3.26	2.87
15	GUCY1B2	-1.17	-0.75	-1.54	-1.23
16	ELF1	1.38	1.77	0.72	1.64
17	XCR1	-0.78	-0.89	-0.75	-0.69
18	LOC387941 (retired record)	-0.67	-0.81	-0.25	-0.96
19	FLJ44874 (retired record)	0.21	0.27	-0.09	0.46
20	IFIT5	-0.02	0.02	0.02	-0.11

A stretch from the list above, as a working copy:
no.	target	mean z-score	z-score, replicate A	z-score, replicate B	z-score, replicate C
3	MFAP3L	-0.41	-0.49	-0.36	-0.37
4	PCCA	0.03	-0.08	0.22	-0.03
5	KIF4B	2.15 (active)	2.26	2.11	2.08

The list goes on:
no.	target	mean z-score	z-score, replicate A	z-score, replicate B	z-score, replicate C
21	POLG	0.01	-0.06	0.07	0.02
22	IL16	0.12	-0.08	0.24	0.18
23	PLXNA3	-1.8	-1.77	-1.82	-1.8
24	PCDH11Y	-0.42	-0.34	-0.42	-0.5
25	TUSC2	0.36	-0.11	0.84	0.36
26	NFKBIL1	-0.49	-0.2	-0.39	-0.89
27	ELP4	0.63	0.77	0.72	0.4
28	SLC38A2	-0.29	-0.3	-0.06	-0.52
29	REEP2	-0.59	-0.27	-0.91	-0.58
30	COX7A2L	2.29 (active)	2.3	2.3	2.27
31	NKAPP1	-1.85	-1.23	-2.21	-2.13
32	LOC400729 (retired record)	-0.15	-0.2	-0.33	0.06
33	LYRM1	-0.78	-1.05	-0.72	-0.57
34	MC5R	-0.85	-1.21	-0.82	-0.51
35	ASB8	1.15	1.39	1.09	0.98
36	BTG1	-0.01	-0.21	0.13	0.06
37	LOC388898 (retired record)	-1.11	-1.1	-0.82	-1.42
38	PCDHA5	-0.39	-0.43	-0.37	-0.36
39	PDZD11	-1.15	-0.81	-1.2	-1.42
40	RNF157	0.55	0.55	0.65	0.46
41	LOC401058 (retired record)	0.7	1.26	0.79	0.04
42	CCDC107	-0.03	-0.09	0.05	-0.06
43	U2AF1	-0.82	-0.69	-0.88	-0.89
44	CENPBD1P	0.71	0.77	0.92	0.46
45	ISCA2	0.5	0.72	0.43	0.34
46	FIGN	-1.26	-1.51	-1.48	-0.79
47	OR6N2	0.28	0.9	0.06	-0.11
48	UBR3	0.8	0.79	0.59	1.01
49	HACL1	-2.08	-1.93	-1.97	-2.35
50	ZSCAN2	1.13	1.63	1.57	0.18
51	IDNK	-0.65	-0.56	-0.58	-0.8
52	CZIB	0.66	1.16	0.84	-0.02
53	CLCN5	-0.65	-0.48	-0.7	-0.78
54	AP5B1	1.2	1.38	0.9	1.31
55	HOXD3	0.04	0.09	-0.11	0.13
56	FAF2	-0.01	0.12	-0.23	0.07
57	NPFFR1	-1.44	-1.51	-1.31	-1.5
